PubChem BioAssay AID504761 – Drosophila RNAi Screening Center, 2011
Screen: 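Fly genes whose silencing reduces dengue virus type 2 infection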 (primary screen). Cell system: D.Mel-2 cells from Drosophila. Reagents: long dsRNA against Drosophila genes. Conditions: infection with dengue virus type 2; dose and infection time not stated. Detection: 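Per well on two replicate plates, imaging gave the percent of cells positive for viral envelope protein, ranked by infection, and a nuclear count of cells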. Scale: infection score: higher = more virus-infected cells; cell count: higher = more cells in the well. Rule for the call: 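Very low infection ranking in both replicate wells (chance probability at most 0.065), then a retest showing infection dropped 1.5-fold or more at p below 0.05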. Meaning of the calls: active = confirmed: knock-down lowers infection; inactive = not picked or not confirmed.
The deposit covers about 22,000 reagents; this is an unselected part of those with a known target gene and a result. Over the whole deposit, 116 (0.52%) were called active. 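Calls depend on retest data that are not deposited; infection was ranked per plate without normalising between plates; the unit of the infection score is not given.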 Raw values vary from plate to plate and are shown uncorrected. Reagents against one gene are numbered here. Not all columns of the deposit are shown. Not given: the amount of reagent, the time to read-out.

Against Naa35 #1 the deposit lists infection score, replicate 1 = 12.7; cell count, replicate 1 = 6034; inactive.
Naa35 #2 scored infection score, replicate 1 = 1.57; cell count, replicate 1 = 6678; active.
Depletion of CG16825 resulted in: infection score, replicate 1 = 17.2; cell count, replicate 1 = 5877; inactive.
Against CG32461 the deposit lists infection score, replicate 1 = 0.61; cell count, replicate 1 = 6049; inactive.
For TwdlU #1, the values are infection score, replicate 1 = 0.41; cell count, replicate 1 = 6151; active.
With knock-down of TwdlU #2, the screen gave cell count, replicate 1 = 356; inactive.
gbb #1 gave infection score, replicate 1 = 3.06; cell count, replicate 1 = 6607; inactive.
gbb #2 scored infection score, replicate 1 = 4.17; cell count, replicate 1 = 6194; inactive.
Depletion of asRNA:CR31084 resulted in: infection score, replicate 1 = 1.2; cell count, replicate 1 = 5988; inactive.
With knock-down of HPS4, the screen gave infection score, replicate 1 = 4.63; cell count, replicate 1 = 6714; inactive.
Against CG42240 #1 the deposit lists infection score, replicate 1 = 0.95; cell count, replicate 1 = 6664; inactive.
Against CG42240 #2 the deposit lists infection score, replicate 1 = 27.9; cell count, replicate 1 = 5745; inactive.

Laid out differently: 4 of the entries above.
| Target gene | reagent | infection score, replicate 1 | cell count, replicate 1 | Call |
| --- | --- | --- | --- | --- |
| CG32461 | 1 | 0.61 | 6049 | inactive |
| TwdlU | 1 | 0.41 | 6151 | active |
| TwdlU | 2 | – | 356 | inactive |
| gbb | 1 | 3.06 | 6607 | inactive |

Continued:
alphaTub85E #1 showed infection score, replicate 1 = 1.92; cell count, replicate 1 = 573; inactive.
With knock-down of alphaTub85E #2, the record shows infection score, replicate 1 = 14.9; cell count, replicate 1 = 1900; inactive.
Silencing of CG4983 #1 came out at: infection score, replicate 1 = 14.5; cell count, replicate 1 = 6126; inactive.
CG4983 #2 scored infection score, replicate 1 = 0.64; cell count, replicate 1 = 6556; inactive.
Kcmf1 #1 gave infection score, replicate 1 = 17.1; cell count, replicate 1 = 5244; inactive.
Kcmf1 #2 showed infection score, replicate 1 = 10.4; cell count, replicate 1 = 5760; inactive.
trpl #1 gave infection score, replicate 1 = 20.1; cell count, replicate 1 = 6472; inactive.
After knock-down of trpl #2 the results were infection score, replicate 1 = 0.57; cell count, replicate 1 = 6190; inactive.
With knock-down of trpl #3, the screen gave infection score, replicate 1 = 4.42; cell count, replicate 1 = 6656; inactive.
Depletion of Rtnl2 #1 gave: infection score, replicate 1 = 5.71; cell count, replicate 1 = 6672; inactive.
Rtnl2 #2 showed infection score, replicate 1 = 1.59; cell count, replicate 1 = 6106; inactive.
After knock-down of Rtnl2 #3 the results were infection score, replicate 1 = 10.6; cell count, replicate 1 = 5967; inactive.
hui #1 showed infection score, replicate 1 = 10.7; cell count, replicate 1 = 6461; inactive.
After knock-down of hui #2 the results were infection score, replicate 1 = 6.98; cell count, replicate 1 = 1905; inactive.
For CG31031 (retired record) the deposit lists infection score, replicate 1 = 0.53; cell count, replicate 1 = 6390; inactive.
